PubChem BioAssay AID504761, Drosophila RNAi Screening Center – 2011

Assay: 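Genome-wide fly cell screen for genes dengue virus requires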 (primary screen)
Cell system: D.Mel-2 cells from Drosophila
Knock-down reagent: long dsRNA against Drosophila genes
Treatment: infection with dengue virus type 2; dose and infection time not stated
Measurement: 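Per well on two replicate plates, imaging gave the percent of cells positive for viral envelope protein, ranked by infection, and a nuclear count of cells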
Scale: infection score: higher = more virus-infected cells; cell count: higher = more cells in the well
Rule for the call: 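Low infection ranks in the two replicates (chance level up to 0.065) followed by a retest with a 1.5-fold or larger significant decrease, p below 0.05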
Meaning of the calls: active = confirmed: knock-down lowers infection; inactive = not picked or not confirmed
In all, the deposit lists about 22,000 reagents; shown is a random part of those with a known target gene and a result. Of all reagents, 116 (0.52%) were called active. 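Calls depend on retest data that are not deposited; infection was ranked per plate without normalising between plates; the unit of the infection score is not given.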 Raw values vary from plate to plate and are shown uncorrected. A number with no mark means an inactive call. The numbers tell different reagents against one gene apart. Not all columns of the deposit are shown. Reagent sequences are not shown. The record does not give: the amount of reagent, the time to read-out.

For ATPsynE (ATP synthase, subunit E) #1, what does the deposit list?
infection score, replicate 1: 13.7; cell count, replicate 1: 5326

With ATPsynE (ATP synthase, subunit E) #2, how do the results read?
infection score, replicate 1: 8.89; cell count, replicate 1: 6066

Which result is listed for side-IV (sidestep IV)?
infection score, replicate 1: 3.03; cell count, replicate 1: 6206

For Chi (Chip) #1, what does the deposit list?
infection score, replicate 1: 5.22; cell count, replicate 1: 6243

Which result is listed for Chi (Chip) #2?
infection score, replicate 1: 2.51; cell count, replicate 1: 1197

What did the screen give for Tsen2 (tRNA splicing endonuclease subunit 2) #1?
infection score, replicate 1: 5.2; cell count, replicate 1: 6362

For Tsen2 (tRNA splicing endonuclease subunit 2) #2, what does the deposit list?
infection score, replicate 1: 28.4; cell count, replicate 1: 5882

For TwdlU (TweedleU) #1, what does the deposit list?
infection score, replicate 1: 0.41 (active); cell count, replicate 1: 6151

What is on record for TwdlU (TweedleU) #2?
cell count, replicate 1: 356

What is on record for Ccp84Aa #1?
infection score, replicate 1: 11.5; cell count, replicate 1: 3764

What is on record for Ccp84Aa #2?
infection score, replicate 1: 1.34; cell count, replicate 1: 6999

What is on record for obst-A (obstructor-A)?
infection score, replicate 1: 10.2; cell count, replicate 1: 6693

With CG7694, what was measured?
infection score, replicate 1: 14.5; cell count, replicate 1: 6426

For su(sable) (suppressor of sable), what was measured?
infection score, replicate 1: 4.98; cell count, replicate 1: 6890

Active calls, among the entries above:
TwdlU (TweedleU) #1 → infection score, replicate 1: 0.41 (active); cell count, replicate 1: 6151
